PubChem BioAssay AID1224833 | University of Georgia | 2016

Test: 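Human genes whose knock-down alters rotavirus replication in monkey cells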 (primary screen)
Cells: monkey MA104 kidney cells
Reagents: siRNA pool against human genes, 50 nM
Timing: 48 h knock-down before infection; read 24 h after infection
Treatment: infection with rotavirus strain RV3 two days after transfection; infectious dose for this stage not given
Detection: 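Rotavirus antigen per well by fluorescent immunoassay, normalised to non-targeting control wells on each plate and given as a standard z-score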
Reading the numbers: z-score vs non-targeting control: higher = more rotavirus replication than with non-targeting control
Hit rule: In these data the active calls have z-score vs non-targeting control at about -1 or lower, or at about 1 or higher
Calls: active = z-score beyond 1 either way; inactive = z-score within 1 of zero
The deposit covers about 12,000 reagents; below is a part drawn at random. About 5,600 of them (46%) count as active. 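Active calls cover z-scores past 1 in both directions, so they include lowered as well as raised rotavirus replication.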

target	z-score vs non-targeting control	Call
PABPC3 (GeneID 5042)	0.149	inactive
OCM (GeneID 654231)	-0.226	inactive
CFHR5 (GeneID 81494)	0.561	inactive
CSTF1 (GeneID 1477)	-1.41	active
TRPT1 (GeneID 83707)	0.48	inactive
TMEM190 (GeneID 147744)	-1.26	active
XKR9 (GeneID 389668)	-0.975	inactive
TMEM98 (GeneID 26022)	-0.934	inactive
TCL1B (GeneID 9623)	0.205	inactive
MRPL45 (GeneID 84311)	1.21	active
ERICH3 (GeneID 127254)	1.03	active
LCNL1 (GeneID 401562)	-1.17	active
SLC36A2 (GeneID 153201)	-1.51	active
RASA1 (GeneID 5921)	-1.07	active
TTLL6 (GeneID 284076)	1.51	active
CALHM2 (GeneID 51063)	-0.638	inactive
NDUFAF4 (GeneID 29078)	-1.41	active
APOBR (GeneID 55911)	0.0953	inactive
BICRA (GeneID 29998)	-0.573	inactive
SCGB1D2 (GeneID 10647)	0.52	inactive
CYP2R1 (GeneID 120227)	-1.41	active
KLHL2 (GeneID 11275)	-1.9	active
AP3B2 (GeneID 8120)	3.09	active
C9orf152 (GeneID 401546)	-1.49	active
TBC1D24 (GeneID 57465)	0.68	inactive
KLHL41 (GeneID 10324)	-1.37	active
TSSC4 (GeneID 10078)	-0.173	inactive

Reformatted: 3 of the entries above
{"target":"OCM (GeneID 654231)","z-score vs non-targeting control":-0.226,"Call":"inactive"}
{"target":"CFHR5 (GeneID 81494)","z-score vs non-targeting control":0.561,"Call":"inactive"}
{"target":"CSTF1 (GeneID 1477)","z-score vs non-targeting control":-1.41,"Call":"active"}

The results go on.
target	z-score vs non-targeting control	Call
ARMC9 (GeneID 80210)	0.825	inactive
TRAPPC5 (GeneID 126003)	-1.43	active
TMEM39B (GeneID 55116)	-0.571	inactive
TTLL12 (GeneID 23170)	-0.596	inactive
BCL7A (GeneID 605)	0.453	inactive
SGSM2 (GeneID 9905)	-0.451	inactive
PLCL1 (GeneID 5334)	-1.95	active
PCDHB11 (GeneID 56125)	-1.52	active
WASL (GeneID 8976)	-0.0084	inactive
TOGARAM2 (GeneID 165186)	-0.699	inactive
NLRP11 (GeneID 204801)	1.1	active
COX5B (GeneID 1329)	-1.55	active
RPS4Y1 (GeneID 6192)	-0.172	inactive
CLEC12A (GeneID 160364)	0.704	inactive
SLC16A14 (GeneID 151473)	0.447	inactive
SSPN (GeneID 8082)	-1.94	active
ANKRD39 (GeneID 51239)	1.18	active
CATSPERE (GeneID 257044)	-0.481	inactive
